Where two headings read alike, the source gives them in different places.
How the values were obtained:
5a D168H = molecular target: T1, 5a D168H (Hepatitis C virus SA13, UniProt O91936, D1195H); experiment: Luciferase assay of HCV replication in transient-transfection replicons with wild-type or substituted NS3 (at least 3 transfections).; assay type: cell-based, Huh-7; details: SD, n = 3
T1 construct: in genotype 2a JFH-1 chimeric transient replicon

3a R155K = molecular target: T2, 3a R155K; experiment: as above; assay type: cell-based, Huh-7; details: SD, n = 3
T2 construct: in chimeric transient replicon

5a D168E = molecular target: T3, 5a D168E (Hepatitis C virus SA13, UniProt O91936, D1195E); experiment: as above; assay type: cell-based, Huh-7; details: SD, n = 3
T3 construct: in genotype 2a JFH-1 chimeric transient replicon

HCV genotype 3a replicon = experiment: Transient replicon assay with engineered substitutions; assay type: cell-based, Hepatitis C virus
HCV genotype 1a replicon = experiment: as above; assay type: cell-based, Hepatitis C virus
HCV genotype 1b replicon = experiment: as above; assay type: cell-based, Hepatitis C virus
HCV genotype 5a replicon = experiment: as above; assay type: cell-based, Hepatitis C virus; details: for EC50: read-out: Mean EC50 ± SD
HCV genotype 2a replicon = experiment: as above; assay type: cell-based, Hepatitis C virus
HCV genotype 4a replicon = experiment: as above; assay type: cell-based, Hepatitis C virus
HCV genotype 4d replicon = experiment: as above; assay type: cell-based, Hepatitis C virus; details: 4d NS3 D168V vs wild-type replicon
HCV genotype 2b replicon = experiment: as above; assay type: cell-based, Hepatitis C virus
[1] = system: HCV genotype 1 to 6 replicons containing NS3 substitutions; experiment: Transient replicon assay with engineered substitutions, summary over genotypes; assay type: cell-based, Hepatitis C virus
HCV genotype 6a replicon = experiment: Transient replicon assay with engineered substitutions; assay type: cell-based, Hepatitis C virus

Question: Which results are given for `C=C[C@@H]1C[C@]1(NC(=O)[C@@H]1C[C@@H]2CN1C(=O)[C@H](C(C)(C)C)NC(=O)O[C@@H]1C[C@H]1CCCCCc1nc3ccc(OC)cc3nc1O2)C(=O)NS(=O)(=O)C1CC1` [Grazoprevir, grazoprevir (MK-5172)]?
Answer: EC50 (5a D168H): 15 ± 2 nM; EC50 (3a R155K): 5.8 ± 0.64 nM; EC50 (5a D168E): 0.58 ± 0.25 nM

Question: Which results are given for `C=C[C@@H]1C[C@]1(NC(=O)[C@@H]1C[C@@H]2CN1C(=O)[C@H](C(C)(C)C)NC(=O)O[C@@H]1C[C@H]1CCCCCc1nc3ccc(OC)cc3nc1O2)C(=O)NS(=O)(=O)C1CC1` [Grazoprevir]?
Answer: Fold change (HCV genotype 3a replicon; 3a NS3 A156G vs wild-type replicon): 13 fold; Fold change (HCV genotype 3a replicon; 3a NS3 Q168R vs wild-type replicon): 3.5 fold; Fold change (HCV genotype 3a replicon; 3a NS3 R155K vs wild-type replicon): 0.1 fold; EC50 (HCV genotype 3a replicon; 3a NS3 R155K, read-out: Mean EC50 ± SD): 5.8 ± 0.64 nM; Fold change (HCV genotype 1a replicon; 1a NS3 A156T vs wild-type replicon): 655 fold; Fold change (HCV genotype 1a replicon; 1a NS3 D168A vs wild-type replicon): 154 fold; EC50 (HCV genotype 1a replicon; 1a NS3 D168A, read-out: Mean EC50 ± SD): 21 ± 9.8 nM; Fold change (HCV genotype 1a replicon; 1a NS3 D168E vs wild-type replicon): 33 fold; Fold change (HCV genotype 1a replicon; 1a NS3 D168V vs wild-type replicon): 211 fold; Fold change (HCV genotype 1a replicon; 1a NS3 F43L vs wild-type replicon): 1.4 fold; Fold change (HCV genotype 1a replicon; 1a NS3 Q80K vs wild-type replicon): 1.8 fold; Fold change (HCV genotype 1a replicon; 1a NS3 R155K vs wild-type replicon): 4.2 fold; Fold change (HCV genotype 1a replicon; 1a NS3 V36M vs wild-type replicon): 1.9 fold; Fold change (HCV genotype 1a replicon; 1a NS3 V55I vs wild-type replicon): 0.7 fold; Fold change (HCV genotype 1a replicon; 1a NS3 Y56H vs wild-type replicon): 16 fold; Fold change (HCV genotype 1b replicon; 1b NS3 A156T vs wild-type replicon): 203 fold; Fold change (HCV genotype 1b replicon; 1b NS3 A156V vs wild-type replicon): 357 fold; Fold change (HCV genotype 1b replicon; 1b NS3 D168A vs wild-type replicon): 45 fold; Fold change (HCV genotype 1b replicon; 1b NS3 D168E vs wild-type replicon): 4.1 fold; Fold change (HCV genotype 1b replicon; 1b NS3 D168V vs wild-type replicon): 22 fold; Fold change (HCV genotype 1b replicon; 1b NS3 R155K vs wild-type replicon): 1.1 fold; EC50 (HCV genotype 1b replicon; 1b NS3 R155K, read-out: Mean EC50 ± SD): 0.21 ± 0.03 nM; Fold change (HCV genotype 5a replicon; 5a NS3 D168E vs wild-type replicon): 9.6 fold; EC50 (HCV genotype 5a replicon; 5a NS3 D168E): 0.58 ± 0.25 nM; Fold change (HCV genotype 5a replicon; 5a NS3 D168H vs wild-type replicon): 244 fold; EC50 (HCV genotype 5a replicon; 5a NS3 D168H): 15 ± 2 nM; Fold change (HCV genotype 2a replicon; 2a NS3 A156T vs wild-type replicon): 110 fold; Fold change (HCV genotype 2a replicon; 2a NS3 A156V vs wild-type replicon): 187 fold; Fold change (HCV genotype 2a replicon; 2a NS3 D168A vs wild-type replicon): 13 fold; Fold change (HCV genotype 2a replicon; 2a NS3 D168E vs wild-type replicon): 5.9 fold; Fold change (HCV genotype 2a replicon; 2a NS3 D168V vs wild-type replicon): 2.3 fold; Fold change (HCV genotype 4a replicon; 4a NS3 A156T vs wild-type replicon): 1,057 fold; Fold change (HCV genotype 4a replicon; 4a NS3 A156V vs wild-type replicon): 602 fold; Fold change (HCV genotype 4a replicon; 4a NS3 D168H vs wild-type replicon): 90 fold; Fold change (HCV genotype 4a replicon; 4a NS3 D168V vs wild-type replicon): 46 fold; Fold change (HCV genotype 4a replicon; 4a NS3 R155C vs wild-type replicon): 7.1 fold; Fold change (HCV genotype 4d replicon): 14 fold; Fold change (HCV genotype 2b replicon; 2b NS3 A156T vs wild-type replicon): 256 fold; Fold change (HCV genotype 2b replicon; 2b NS3 A156V vs wild-type replicon): 473 fold; Fold change (HCV genotype 2b replicon; 2b NS3 D168A vs wild-type replicon): 57 fold; Fold change (HCV genotype 2b replicon; 2b NS3 D168E vs wild-type replicon): 5.7 fold; Fold change (HCV genotype 2b replicon; 2b NS3 D168V vs wild-type replicon): 14 fold; Fold reduced activity, range ([1]; D168 substitutions in genotypes 1a, 1b, 2a, 2b, 4a, 4d, 5a and 6a): 2.3- to 1,048 fold; Fold decrease in susceptibility ([1]; R155 substitutions in genotypes 1, 3 and 4): ≤ 7.1 fold; Fold reduction in antiviral activity, range ([1]; replicons with A156 substitutions in genotypes 1 to 4): 13- to 1,057 fold; Fold change (HCV genotype 6a replicon; 6a NS3 D168A vs wild-type replicon): 1,048 fold; Fold change (HCV genotype 6a replicon; 6a NS3 D168H vs wild-type replicon): 459 fold; Fold change (HCV genotype 6a replicon; 6a NS3 D168V vs wild-type replicon): 247 fold
